According to PMC4484790 (Virology, 2014):
Several values for one entry are separate records, joined by “and”; a condition that tells them apart may be missing. Equal values may be shown once.

Key:
[1] = PK of orally administered MVC in plasma and mucosal tissues of hu-mice; assay type: in vivo
[2] = PK of orally administered MVC in plasma and mucosal tissues of non-hu mice; assay type: in vivo, non-humanized mice
[3] = intestinal tissue, MVC oral 62 mg/kg x 5 days
[4] = plasma, MVC oral 62 mg/kg x 5 days
[5] = plasma, MVC oral gavage 62 mg/kg daily for 5 days, post-last dose
[6] = rectal tissue, MVC oral 62 mg/kg x 5 days
[7] = vaginal tissue, MVC oral 62 mg/kg x 5 days

Maraviroc [MVC]
AUC24h [1, 3]: 140,159 ng * h/g
Half-life (t½) [1, 3]: 1.2 h
Tmax [1, 3]: 4 h
AUC24h [1, 4]: 488.6 ng·h/mL
AUC48h [1, 4]: 755 ng·h/mL
Half-life (t½) [1, 4]: 1 h
Tmax [1, 4]: 4 h
Cmax (median) [1, 5]: 102 ng/mL
AUC24h [1, 6]: 32,690 ng * h/g
Half-life (t½) [1, 6]: 1.5 h
Tmax [1, 6]: 4 h
RT:BP AUC ratio ([1]; rectal tissue:blood plasma, MVC oral 62 mg/kg x 5 days): 66.9
AUC24h [1, 7]: 2,461 ng * h/g
Half-life (t½) [1, 7]: 2.6 h
Tmax [1, 7]: 4 h
AUC24h VT:BP ratio ([1]; vaginal tissue:blood plasma, MVC oral 62 mg/kg x 5 days): 5
AUC24h [2, 3]: 134,883 ng * h/g
Half-life (t½) [2, 3]: 2.7 h
Tmax [2, 3]: 4 h
AUC24h tissue:plasma ratio ([2]; intestinal tissue:plasma, MVC oral 62 mg/kg x 5 days): 43.8
AUC48h [2, 4]: 3,280 ng * h/ml
Tmax [2, 4]: 4 h
Half-life (t½) ([2]; plasma, MVC oral 62 mg/kg x 5 days, 62 mg/kg): 20 h and 20.1 h
Cmax (median) [2, 5]: 113 ng/mL
AUC24h [2, 6]: 69,301 ng * h/g
Half-life (t½) [2, 6]: 2.9 h
Tmax [2, 6]: 4 h
AUC24h tissue:plasma ratio ([2]; rectal tissue:plasma, MVC oral 62 mg/kg x 5 days): 22.5
AUC24h [2, 7]: 11,239 ng * h/g
Half-life (t½) [2, 7]: 3.7 h
Tmax [2, 7]: 4 h
AUC24h tissue:plasma ratio ([2]; vaginal tissue:plasma, MVC oral 62 mg/kg x 5 days, 62 mg/kg): 3.65
